From paper PMC9550806, “Structural insights into PA3488-mediated inactivation of Pseudomonas aeruginosa PldA” (2022)

Experiments:
[1] = biological target: Pseudomonas aeruginosa PldA, full length (PldA^FL) (P. aeruginosa) (UniProt Q9HYC2); assay: SPR
[2] = biological target: Pseudomonas aeruginosa PA3488 (20-376, without the N-terminal 19 signal peptide) (P. aeruginosa); assay: SPR

PA3488^D118A (natural protein)
Kd [1]: 0.019 nM | koff [1]: 6.25e-06 s⁻¹ | kon [1]: 330000 M⁻¹ s⁻¹

PA3488^D273A (natural protein)
Kd [1]: 17.3 nM | koff [1]: 0.00012 s⁻¹ | kon [1]: 6920 M⁻¹ s⁻¹

PA3488^R50A (natural protein)
Kd [1]: 1.03 nM | koff [1]: 0.000214 s⁻¹ | kon [1]: 208000 M⁻¹ s⁻¹

PA3488^R50A-D118A-D273A (natural protein)
Kd [1]: 14.1 nM | koff [1]: 0.00382 s⁻¹ | kon [1]: 271000 M⁻¹ s⁻¹

PldA^D643A (from UniProt Q9HYC2 1-1099) (enzyme)
Kd [2]: 0.846 nM | koff [2]: 1.83e-05 s⁻¹ | kon [2]: 21700 M⁻¹ s⁻¹

PldA^D643A-R820A-R969A (from UniProt Q9HYC2 1-1099) (enzyme)
Kd [2]: 0.741 nM | koff [2]: 1.78e-06 s⁻¹ | kon [2]: 2400 M⁻¹ s⁻¹

PldA^R820A (from UniProt Q9HYC2 1-1099) (enzyme)
Kd [2]: 0.0244 nM | koff [2]: 5.19e-08 s⁻¹ | kon [2]: 2130 M⁻¹ s⁻¹

PldA^R969A (from UniProt Q9HYC2 1-1099) (enzyme)
Kd [2]: 6.42 nM | koff [2]: 7.57e-05 s⁻¹ | kon [2]: 11800 M⁻¹ s⁻¹

Pseudomonas aeruginosa PldA, full length (PldA^FL) (from UniProt Q9HYC2 1-1099) (enzyme)
Kd [2]: 0.0307 nM | koff [2]: 1.83e-05 s⁻¹ | kon [2]: 596000 M⁻¹ s⁻¹
